Three molecules from patent US9266930 can be followed below.

B1: […] (P. falciparum LSA, position 1585, 9 amino acids; Seq. Id 324) (peptide)
peptide: KLQEQQSDL
modifications: not checked
B2: […] (P. falciparum LSA, position 4, 10 amino acids; Seq. Id 309) (peptide)
peptide: ILYISFYFIL
modifications: not checked
B3: […] (P. falciparum LSA, position 3, 10 amino acids; Seq. Id 296) (peptide)
peptide: HILYISFYFI
modifications: not checked

The target in this assay is HLA-A*0201 (Human).
Regarding B1, the binding affinity ratio (IC50 of standard peptide / IC50 of test peptide) was 0.0019.

With B2, the binding affinity ratio (IC50 of standard peptide / IC50 of test peptide) was 0.0035.

On to B3, for which the binding affinity ratio (IC50 of standard peptide / IC50 of test peptide) turned out to be 0.0033.
